Patent publication US12049474B2, “Nucleoside prodrugs and uses related thereto” (Emory University, priority 2019, dated 2024)
Several values for one entry are separate records, joined by “and”; a condition that tells them apart may be missing. Equal values may be shown once. Where a name gives a salt, the structure may show the parent alone.

Test system: HIV
Type: cell-based
Settings: CC50/IC50

Structure (SMILES)	Therapeutic Index
C#CCCCCCCCCCCCCCOP(=O)(O)CO[C@H](C)Cn1cnc2c(N)ncnc21.N [EJM-8-006, Ammonium pentadec-14-yn-1-yl (R)-(((1-(6-amino-9H-purin-9-yl)propan-2-yl)oxy)methyl)phosphonate]	>3
C#CCCCCCCCCCCCCCCCCOP(=O)(O)CO[C@H](C)Cn1cnc2c(N)ncnc21.N [Compound B1-1-024, Ammonium octadec-17-yn-1-yl ((((R)-1-(6-amino-9H-purin-9-yl)propan-2-yl)oxy)methyl)phosphonate]	>49
CCCCCCCCCCCCCCCOCCCCOP(=O)(O)COC(C)Cn1cnc2c(N)ncnc21.N (racemic) [NP-PD-150, Ammonium 4-pentadecoxybutoxy-[[rac-(1R)-2-(6-aminopurin-9-yl)-1-methyl-ethoxy]methyl]phosphinate]	>3,333
C[C@H](Cn1cnc2c(N)ncnc21)OCP(=O)(O)OCCCCCCCCCCCCCCCCCC#CC(F)(F)F.N [NP-PD-102, Ammonium [(1R)-2-(6-aminopurin-9-yl)-1-methyl-ethoxy]methyl-(20,20,20-trifluoroicos-18-ynoxy)phosphinate]	423
N.[2H]C([2H])([2H])CCCCCCCCCCCCCCCOP(=O)(O)CO[C@H](C)Cn1cnc2c(N)ncnc21 [EJM-8-036, Ammonium hexadecyl-16,16,16-d3 (R)-(((1-(6-amino-9H-purin-9-yl)propan-2-yl)oxy)methyl)phosphonate]	44
C[C@H](Cn1cnc2c(N)ncnc21)OCP(=O)(O)OCCCCCCCCCCCCCCCCCCCC(F)(F)F.N [NP-PD-105, ammonium [(1R)-2-(6-aminopurin-9-yl)-1-methyl-ethoxy]methyl-(20,20,20-trifluoroicosoxy)phosphinate]	603
CCCCCCCCCCCCCCCCCCOP(=O)(O)CO[C@H](C)Cn1cnc2c(N)ncnc21.N [MD-1-105, Ammonium Octadecyl (R)-(((1-(6-amino-9H-purin-9-yl)propan-2-yl)oxy)methyl)phosphonate]	895
CC(C)OC(=O)[C@H](C)N[P@](=O)(CO[C@H](C)Cn1cnc2c(N)ncnc21)Oc1ccccc1 [TAF, tenofovir alafenamide fumarate, reference compound]	>50,000 and >100,000
C[C@H](Cn1cnc2c(N)ncnc21)OCP(=O)(O)OCCCCCCCCCCCCCCCCC#C[Si](C)(C)C.N [NP-PD-042, Ammonium [(1R)-2-(6-aminopurin-9-yl)-1-methyl-ethoxy]methyl-(18-trimethylsilyloctadec-17-ynoxy)phosphinate]	792
C[C@H](Cn1cnc2c(N)ncnc21)OCP(=O)(O)OCCCSCCCCCCCCCCCOc1ccccc1.N [MD-1-223, Ammonium 3-((11-phenoxyundecyl)thio)propyl (R)-(((1-(6-amino-9H-purin-9-yl)propan-2-yl)oxy)methyl)phosphonate]	>11,111
C[C@H](Cn1cnc2c(N)ncnc21)OCP(=O)(O)OCCCSCCCCCCCCCCCCC#C[Si](C)(C)C.N [MD-1-187, Ammonium 3-((14-(trimethylsilyl)tetradec-13-yn-1-yl)thio)propyl (R)-(((1-(6-amino-9H-purin-9-yl)propan-2-yl)oxy)methyl)phosphonate]	>4,167
C#CCCCCCCCCCCCCCCCCSCCCOP(=O)(O)CO[C@H](C)Cn1cnc2c(N)ncnc21.N [BI-1-057, Ammonium 3-(octadec-17-yn-1-ylthio)propyl (R)-(((1-(6-amino-9H-purin-9-yl)propan-2-yl)oxy)methyl)phosphonate]	949
CCCCCCCCCCCCCCOCCCCCOP(=O)(O)COC(C)Cn1cnc2c(N)ncnc21.N (racemic) [NP-PD-154, Ammonium [rac-(1R)-2-(6-aminopurin-9-yl)-1-methyl-ethoxy]methyl-(5-tetradecoxypentoxy)phosphinate]	>1,923
C[C@H](Cn1cnc2c(N)ncnc21)OCP(=O)(O)OCCCCCCCCCCCCCCCCCC[Si](C)(C)C.N [NP-PD-051, Ammonium [(1R)-2-(6-aminopurin-9-yl)-1-methyl-ethoxy]methyl-(18-trimethylsilyloctadecoxy)phosphinate]	282
N.[2H]C([2H])([2H])C([2H])([2H])CCCCCCCCCCCCCOP(=O)(O)CO[C@H](C)Cn1cnc2c(N)ncnc21 [EJM-8-030, Ammonium pentadecyl-14,14,15,15,15-d5 (R)-(((1-(6-amino-9H-purin-9-yl)propan-2-yl)oxy)methyl)phosphonate]	>22
C#CCCCCCCCCCCCCCCOCCCOP(=O)(O)CO[C@H](C)Cn1cnc2c(N)ncnc21.N [MD-5-72, Ammonium 3-(hexadec-15-yn-1-yloxy)propyl (R)-(((1-(6-amino-9H-purin-9-yl)propan-2-yl)oxy)methyl)phosphonate]	>758
C[C@H](Cn1cnc2c(N)ncnc21)OCP(=O)(O)OCCCOCCCCCCCCCCCCCC#CC(F)(F)F.N [NP-PD-149, Ammonium [(1R)-2-(6-aminopurin-9-yl)-1-methyl-ethoxy]methyl-[3-(16,16,16-trifluorohexadec-14-ynoxy)propoxy]phosphinate]	>4,348
C[C@H](Cn1cnc2c(N)ncnc21)OCP(=O)(O)OCCCSCCCCCCCCCCCSc1ccccc1.N [MD-1-119, Ammonium 3-((11-(phenylthio)undecyl)thio)propyl (R)-(((1-(6-amino-9H-purin-9-yl)propan-2-yl)oxy)methyl)phosphonate]	>2,000
C#CCCCCCCCCCCCCCCCCCCOP(=O)(O)CO[C@H](C)Cn1cnc2c(N)ncnc21.N [Compound B1-1-065, Ammonium icos-19-yn-1-yl (R)-(((1-(6-amino-9H-purin-9-yl)propan-2-yl)oxy)methyl)phosphonate]	84
C[C@H](Cn1cnc2c(N)ncnc21)OCP(=O)(O)OCCCSCCCCCCCCCCCCc1ccccc1.N [MD-1-184, Ammonium 3-((12-phenyldodecyl)thio)propyl (R)-(((1-(6-amino-9H-purin-9-yl)propan-2-yl)oxy)methyl)phosphonate]	>12,500
C[C@H](Cn1cnc2c(N)ncnc21)OCP(=O)(O)OCCCSCCCCCCCCCCC#Cc1ccccc1.N [MD-1-183, Ammonium 3-((12-phenyldodec-11-yn-1-yl)thio)propyl (R)-(((1-(6-amino-9H-purin-9-yl)propan-2-yl)oxy)methyl)phosphonate]	>12,500
CCCCCCCCCCCCCCCOP(=O)(O)CO[C@H](C)Cn1cnc2c(N)ncnc21.N [MD-1-106, Ammonium Pentadecyl (R)-(((1-(6-amino-9H-purin-9-yl)propan-2-yl)oxy)methyl)phosphonate]	>49
COC(=O)CCCCCCCCCCCCCCCSCCCOP(=O)(O)CO[C@H](C)Cn1cnc2c(N)ncnc21.N [MD-1-124, Ammonium 3-((16-methoxy-16-oxohexadecyl)thio)propyl (R)-(((1-(6-amino-9H-purin-9-yl)propan-2-yl)oxy)methyl)phosphonate]	>70
C[C@H](Cn1cnc2c(N)ncnc21)OCP(=O)(O)OCCCOCCCCCCCCCCCCCCCC(F)(F)F.N [NP-PD-158, Ammonium [(1R)-2-(6-aminopurin-9-yl)-1-methyl-ethoxy]methyl-[3-(16,16,16-trifluorohexadecoxy)propoxy]phosphinate]	>4,348
CCCCCCCCCCCCCCCCCOCCOP(=O)(O)COC(C)Cn1cnc2c(N)ncnc21.N (racemic) [NP-PD-157, Ammonium 2-heptadecoxyethoxy-[[rac-(1R)-2-(6-aminopurin-9-yl)-1-methyl-ethoxy]methyl]phosphinate]	27,840
